What was measured:
[1] = system: promastigote forms of Leishmania amazonensis (WHOM/BR/75/JOSEFA strain); test: Antiproliferative assay (XTT), promastigote forms, 72 h; type: cell-based; conditions: for Fold change in activity against L. amazonensis relative to analog/precursor: promastigote IC50 ratio, 3 db less active vs 2 db, 3 bc more active vs 2 bc, 4 ac more active vs 3 ac
Description: (§1) The antiproliferative activity was determined in promastigote forms of Leishmania amazonensis (WHOM/BR/75/JOSEFA strain) and epimastigote forms of Trypanosoma cruzi (Y strain). The promastigote forms of L. amazonensis were cultured in Warren medium (brain heart infusion, hemin, and folic acid; pH 7.4) supplemented with 10 % fetal bovine serum (FBS) at 25 °C. The epimastigote forms of T.cruzi were cultured in LIT medium (liver infusion tryptose; hemin, and folic acid; pH 7.4) supplemented with 10 % FBS at 28 °C. Cytotoxicity in mammalian cells was determined in fibroblast line (L929) and macrophages (J774 A1). Fibroblasts were cultured in DMEM medium (pH 7.2) supplemented with 10 % FBS at 37 °C in a 5 % CO2 atmosphere. Macrophages were cultured in RPMI‐1640 (pH 7.2) medium supplemented with 10 % FBS at 37 °C in a 5 % CO2 atmosphere.
(§2) Stock solutions of the compounds were prepared in DMSO and then diluted in the respective medium.
(§3) Promastigote forms (1×10^6 parasites.mL^−1) were cultured in 96‐well plates in the presence and absence of different concentrations of compounds diluted in Warren medium supplemented with 10 % FBS and incubated for 72 h. The epimastigote forms (1×10^6 parasites.mL^−1) were cultured in 96‐well plates in the presence and absence of different concentrations of compounds diluted in LIT medium supplemented with 10 % FBS and incubated for 96 h. After treatment, the parasites were incubated with a solution of 2,3‐bis(2‐methoxy‐4‐nitro‐5‐sulfophenyl)‐2H‐tetrazolium‐5‐carboxanilide (XTT; 0.5 mg.mL^−1) and phenazine methanesulfonate activator (PMS; 0.06 mg.mL^−1) in PBS for 4 h. Then, the absorbance was read in a microplate reader (Bio Tek‐Power Wave XS) at 450 nm.[20] The percentage of viable parasites was calculated in relation to the control in order to determine the concentration that inhibits 50 % of the protozoa (IC50). The control groups of each experiment received the same experimental conditions as the treated groups (cell concentration used, temperature, and incubation time).

[2] = system: epimastigote forms of Trypanosoma cruzi (Y strain); test: Antiproliferative assay (XTT), epimastigote forms, 96 h; type: cell-based
Description: as §1, §2, §3

## CCOC(=O)c1noc(-c2ccc([N+](=O)[O-])cc2)c1CNc1ccccc1 [2 aa, 3‐Carboxyethyl‐4‐(phenyl)aminomethyl‐5‐(4‐nitrophenyl)isoxazole]
[1]; fibroblast vs promastigote
  SIL-F, selectivity index (Fibroblast CC50/L. amazonensis IC50): 7.74
[1]; macrophages vs promastigote
  SIL-M, selectivity index (Macrophages CC50/L. amazonensis IC50): 5.82
[2]; fibroblast vs epimastigote
  SIT-F, selectivity index (Fibroblast CC50/T. cruzi IC50): 4.97
[2]; macrophages vs epimastigote
  SIT-M, selectivity index (Macrophages CC50/T. cruzi IC50): 3.74

## COc1ccc(NCc2c(C(=O)NN)noc2-c2ccccc2)cc1 [3 bc]
[1]
  Fold change in activity against L. amazonensis relative to analog/precursor: 3.6 fold

## NNC(=O)c1noc(-c2ccc(Cl)cc2)c1CNc1ccc(Cl)cc1 [3 db]
[1]
  Fold change in activity against L. amazonensis relative to analog/precursor: 2.7 fold

## COc1ccc(NCc2c(C(=O)N/N=C/c3ccccc3)noc2-c2ccc([N+](=O)[O-])cc2)cc1 [4 ac]
[1]
  Fold change in activity against L. amazonensis relative to analog/precursor: approximately 4 fold
[2]; 4 ac vs carbohydrazide 3 ac
  Fold increase in anti-Trypanosoma cruzi activity relative to precursor: ~5 fold

Reference: publication PMC8485799, “Synthesis and Antiprotozoal Profile of 3,4,5‐Trisubstituted Isoxazoles” (ChemistryOpen, 2021)
